Measurements from publication PMC6271933, “Evaluation of the Toxicity of 5-Aryl-2-Aminoimidazole-Based Biofilm Inhibitors against Eukaryotic Cell Lines, Bone Cells and the Nematode Caenorhabditis elegans” (Molecules, 2014).
Some entries repeat one wording, which the source may state once for all of them.

Assays:
Format in all cases: cell-based
L1210, CEM and HeLa = test: Cytostatic activity against tumor cell lines, statements over all cell lines; conditions: IC50 / BIC50 Salmonella
murine leukemia (L1210) = test: Cytostatic activity against tumor cell lines (cell number by Coulter counter); conditions: for TI P. aeruginosa L1210: ratio IC50 (L1210) / BIC50 (P. aeruginosa); for TI S. Typhimurium L1210: ratio IC50 (L1210) / BIC50 (S. Typhimurium)
Procedure: (§1) The IC50 was defined as the compound concentration required to inhibit cell proliferation by 50%. The therapeutic index (TI) was calculated as the ratio of the compound concentration producing toxicity (IC50) to the concentration needed to exert the desired ‘therapeutic’ effect on biofilms of Salmonella and Pseudomonas, indicated by the BIC50 (dose needed to prevent biofilm formation by 50%). The higher the therapeutic index, the broader the safety window of the compound.
(§2) Murine leukemia (L1210), human T-lymphocyte (CEM) and human cervix carcinoma (HeLa) were suspended at 300,000–500,000 cells/mL of culture medium, and 100 µL of a cell suspension was added to 100 µL of an appropriate dilution of the test compounds in 200 µL-wells of 96-well microtiter plates. After incubation at 37 °C for two (L1210), three (CEM) or four (HeLa) days, the cell number was determined using a Coulter counter. The IC50 was defined as the compound concentration required to inhibit cell proliferation by 50%.

[1] = system: human cervix carcinoma (HeLa); test: as above; conditions: for TI P. aeruginosa HeLa: ratio IC50 (HeLa) / BIC50 (P. aeruginosa); for TI S. Typhimurium HeLa: ratio IC50 (HeLa) / BIC50 (S. Typhimurium)
Procedure: as §1, §2

human T-lymphocyte (CEM) = test: as above; conditions: for TI P. aeruginosa CEM: ratio IC50 (CEM) / BIC50 (P. aeruginosa); for TI S. Typhimurium CEM: ratio IC50 (CEM) / BIC50 (S. Typhimurium)
Procedure: as §1, §2

Structure (SMILES)	TI / safety window with respect to Salmonella biofilm inhibition, all cell lines (L1210, CEM and HeLa)	TI P. aeruginosa L1210 (murine leukemia (L1210))	TI S. Typhimurium L1210 (murine leukemia (L1210))	TI P. aeruginosa HeLa [1]	TI S. Typhimurium HeLa [1]	TI P. aeruginosa CEM (human T-lymphocyte (CEM))	TI S. Typhimurium CEM (human T-lymphocyte (CEM))
Nc1ncc(-c2ccccc2)[nH]1 [compound 1]	toxic at concentrations overlapping with the Salmonella biofilm inhibitory concentrations						
Nc1ncc(-c2ccc(-c3ccccc3)cc2)[nH]1 [compound 3]	toxic at concentrations overlapping with the Salmonella biofilm inhibitory concentrations	4.3	2.2	4.0	2.0	1.6	0.8
Nc1ncc(-c2ccc(Br)cc2)[nH]1 [compound 5, 5-(p-bromophenyl)-2-aminoimidazole]	toxic at concentrations overlapping with the Salmonella biofilm inhibitory concentrations						
CCCCCCCCn1c(-c2ccccc2)cnc1N [compound 6]		0.2	0.3	0.2	0.3	25.3	39.3
CCCCCCCCn1c(-c2ccc(Cl)cc2)cnc1N [compound 7]		1.0	0.7	1.1	0.8	89.2	60.5
CCCCCCCCCCCCCn1c(-c2ccc(Cl)cc2)cnc1N [compound 8]		0.2	0.4	0.1	0.2	0.2	0.3
CCCCCCCn1c(-c2ccc(-c3ccccc3)cc2)cnc1N [compound 9]		0.3	0.8	0.3	0.9	0.3	0.9
CCCCCCCCn1c(-c2ccc(-c3ccccc3)cc2)cnc1N [compound 10]		0.9	2.4	0.7	2.0	0.9	2.5
Nc1ncc(-c2ccc(-c3ccccc3)cc2)n1C1CCCC1 [compound 11]		0.01	0.6	0.02	1.1	0.01	0.4
Nc1ncc(-c2ccc(-c3ccccc3)cc2)n1C1CCCCCC1 [compound 12]		1.2	0.6	1.0	0.5	0.8	0.4
Nc1ncc(-c2ccc(-c3ccccc3)cc2)n1C1CCCCCCC1 [compound 13]		2.2	0.3	2.2	0.3	1.5	0.2
CCCCCCCCn1c(-c2ccc(F)cc2)cnc1N [compound 14]		0.7	0.3	1.8	0.8	1.5	0.7
CCCCCCCCn1c(-c2ccc(SC)cc2)cnc1N [compound 15, N1-octyl-5-[4-SMePh]-2AI]		1.5	0.6	2.3	0.9	2.6	1.1
CCCCCCCCn1c(-c2cccc(Br)c2)cnc1N [compound 16]		0.2	0.6	0.2	0.7	0.2	0.9
COc1cccc(CCn2c(-c3ccc(Cl)c(Cl)c3)cnc2N)c1 [compound 17]			<0.02		<0.02		<0.02
